{
  "source": "PubChem BioAssay AID493162",
  "about": "(ICCB-Longwood Screening Facility, Harvard Medical School, 2011)",
  "note": "This is a selection; strong and weak results do not stand in their true shares. The source made the active and inactive calls. No stated cut-off is given here; in the data, active means normalized absorbance mostly below about 85% (no sharp cut-off); inactive means mostly above about 86%.",
  "data": [
    {"system": "Vaccinia virus DNA polymerase (E9) processive complex", "test": "vaccinia E9 polymerase processive synthesis inhibitors, primary screen, biochemical, absorbance (AID 493162)", "details": "in vitro processive DNA synthesis, absorbance read-out; active compounds read low; concentration not given here", "values": [
      {"smiles": "CC1CN(CCc2ccccc2)CCC1=O", "note": "(configuration not stated)", "normalized absorbance": "inactive: 99.3%"},
      {"smiles": "CC(C)(C)OC(=O)N1CCC(Nc2ccc(OC(F)(F)F)cc2)CC1", "normalized absorbance": "inactive: 96.6%"},
      {"smiles": "FC(F)(F)Oc1ccc(NC2CCNCC2)cc1", "normalized absorbance": "inactive: 99.2%"},
      {"smiles": "NC(=O)C1(Nc2ccccc2)CCN(Cc2ccccc2)CC1", "normalized absorbance": "inactive: 99.9%"},
      {"smiles": "O=c1[nH]c2ccccc2n1C1CCN(CCCC(c2ccc(F)cc2)c2ccc(F)cc2Cl)CC1", "note": "(configuration not stated)", "normalized absorbance": "inactive: 91.6%"},
      {"smiles": "CC1CN(CCc2ccccc2)C(C)CC1=O", "note": "(configuration not stated)", "normalized absorbance": "inactive: 97.5%"},
      {"smiles": "CC(C)(C)OC(=O)N1CCC(Nc2ccccc2)CC1", "normalized absorbance": "inactive: 109%"}
    ]}
  ]
}
